Values from PubChem BioAssay AID504761 (Drosophila RNAi Screening Center, 2011).
The screen tested about 22,000 reagents; below is an unselected part of those with a known target gene and a result. Over the whole deposit, 116 (0.52%) were called active. 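Calls depend on retest data that are not deposited; infection was ranked per plate without normalising between plates; the unit of the infection score is not given.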 Reagents against one gene are numbered here. Names joined by + are all predicted targets of the reagent. Not all columns of the deposit are shown. Not stated in the record: the amount of reagent, the time to read-out.

Purpose: 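Genome-wide fly cell screen for genes dengue virus requires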 (primary screen)
System: D.Mel-2 cells from Drosophila
Reagent: long dsRNA against Drosophila genes
Conditions: infection with dengue virus type 2; dose and infection time not stated
Measurement: 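Per well on two replicate plates, imaging gave the percent of cells positive for viral envelope protein, ranked by infection, and a nuclear count of cells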
Direction: infection score: higher = more virus-infected cells
Hit rule: 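Low infection ranks in the two replicates (chance level up to 0.065) followed by a retest with a 1.5-fold or larger significant decrease, p below 0.05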
Meaning of the calls: active = confirmed: knock-down lowers infection; inactive = not picked or not confirmed

Against CG14000, the entry reads infection score, replicate 1 = 2.58; inactive.
Silencing of CG13272 #1 resulted in: infection score, replicate 1 = 6.41; inactive.
Depletion of CG13272 #2 gave: infection score, replicate 1 = 2.47; inactive.
For CG13272 #3, the values are infection score, replicate 1 = 8.41; inactive.
With knock-down of csw #1, the record shows infection score, replicate 1 = 2.51; inactive.
After knock-down of csw #2 the results were infection score, replicate 1 = 2.27; inactive.
For Stacl + CG8179 (retired record) #1, the values are infection score, replicate 1 = 2.56; inactive.
Silencing of Stacl + CG8179 (retired record) #2 came out at: infection score, replicate 1 = 1.61; inactive.
Knock-down of Acsf2 #1 came out at: infection score, replicate 1 = 4.85; inactive.
Acsf2 #2 scored infection score, replicate 1 = 3.89; inactive.
CG31556 (retired record) #1 showed infection score, replicate 1 = 4.98; inactive.
For CG31556 (retired record) #2, the values are infection score, replicate 1 = 4.75; inactive.
CG31556 (retired record) #3 scored infection score, replicate 1 = 3.57; inactive.
Against Rbbp5 + CG6434 (retired record), the entry reads infection score, replicate 1 = 15; inactive.
With knock-down of CG33285 #1, the record shows infection score, replicate 1 = 0.51; inactive.
Depletion of CG33285 #2 resulted in: infection score, replicate 1 = 5.98; inactive.
obst-I showed infection score, replicate 1 = 16.4; inactive.
For CG14455 #1 the deposit lists infection score, replicate 1 = 6.91; inactive.
With knock-down of CG14455 #2, the screen gave infection score, replicate 1 = 6.21; inactive.
SWIP scored infection score, replicate 1 = 4.86; inactive.
For Tsp42Eo the deposit lists infection score, replicate 1 = 3.8; inactive.
